Values joined by “and” are separate entries in the source; they are usually repeats but may differ in a detail not shown here. Equal entries are not always repeated. The list shows a part of the results. Potency and affinity values are given separately. Active and inactive are the calls of the source. The rule behind the calls is not given here.
molecular target: Large T antigen (Simian virus 40) (UniProt P03070); assay: SV40 large T antigen inhibitors, biochemical (AID 1903); details: SV40 large T antigen ATPase/helicase inhibition assay; at 20 µM; stronger effect = higher value

Protein sequences, listed by entry. Tags and fused reporters are not part of them.
UniProt P03070, whole entry, looked up: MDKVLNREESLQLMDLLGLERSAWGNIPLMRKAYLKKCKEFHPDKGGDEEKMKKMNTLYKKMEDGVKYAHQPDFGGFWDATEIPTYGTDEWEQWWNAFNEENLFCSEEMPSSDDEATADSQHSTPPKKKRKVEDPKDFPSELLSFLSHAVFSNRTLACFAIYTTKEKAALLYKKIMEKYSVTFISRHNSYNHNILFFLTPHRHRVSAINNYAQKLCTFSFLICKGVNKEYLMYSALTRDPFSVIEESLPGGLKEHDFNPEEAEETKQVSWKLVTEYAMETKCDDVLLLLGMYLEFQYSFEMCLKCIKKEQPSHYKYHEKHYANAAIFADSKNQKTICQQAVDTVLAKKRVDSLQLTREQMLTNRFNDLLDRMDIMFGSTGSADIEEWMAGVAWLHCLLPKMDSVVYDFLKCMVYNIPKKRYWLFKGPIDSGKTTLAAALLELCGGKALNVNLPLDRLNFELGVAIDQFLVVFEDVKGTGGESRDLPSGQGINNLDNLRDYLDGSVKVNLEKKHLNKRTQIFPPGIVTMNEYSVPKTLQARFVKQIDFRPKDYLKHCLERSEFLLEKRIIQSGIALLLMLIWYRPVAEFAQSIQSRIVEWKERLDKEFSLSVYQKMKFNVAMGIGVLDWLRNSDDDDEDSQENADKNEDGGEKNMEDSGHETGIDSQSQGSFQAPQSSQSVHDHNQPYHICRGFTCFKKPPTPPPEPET

SMILES	inhibition
Cc1ccc(C(=O)OC2CN3CCC2CC3)cc1 (configuration not stated)	inactive: 6.98%
CC1CCC(C(C)C)C(OP(=O)(Nc2ccccn2)c2ccccc2)C1 (configuration not stated)	inactive: 4.39%
Cc1nn(-c2ccccc2)c2c1P(=O)(N1CCOCC1)N(C)C(c1ccccc1)=N2 (configuration not stated)	inactive: 8.29%
O=C(/C=C/c1ccccc1)OC1CN2CCC1CC2 (configuration not stated)	inactive: 8.86%
CN(C)C1(CNC(=O)c2ccc(S(C)(=O)=O)cc2)CCCCC1	inactive: -8.8%
O=P1(Nc2ncccn2)COc2ccccc2OC1	inactive: 2.11%
O=P1(Nc2ccc(Br)cn2)COc2ccccc2OC1	inactive: 20.6%
O=[As](O)(c1cccs1)c1cccs1	inactive: 5.47%
Cc1ccc(OCC(=O)OC2CN3CCC2CC3)cc1 (configuration not stated)	inactive: 3.58%
Nc1cccc([As](=O)(O)c2ccccc2)c1	inactive: 1.96%
CN(CCCl)Cc1cc(Cl)c(NC2=NCCN2)c(Cl)c1	inactive: 32.9%
CCOP(=O)(Nc1ccc(C)cn1)OCC	inactive: 1.34%
CCOP(=O)(NC(=NC(C)c1ccccc1)NC(C)c1ccccc1)OCC (configuration not stated)	inactive: 12.5%
CCC1=CC2Cc3nc4ccc(Cl)cc4c(N)c3C(C1)C2 (configuration not stated)	inactive: 4.01%
O=P1(Nc2ccccn2)COc2ccccc2OC1	inactive: 19.3%
CC(C)(C)C(=O)NC(Sc1ncccn1)C(Cl)(Cl)Cl (configuration not stated)	inactive: 21.1%
Clc1n[nH]nc1-c1nn[nH][15n]1	inactive: 9.01%
COc1ccccc1CNC(=O)COC(=O)C(O)(c1ccccc1)c1ccccc1	inactive: 5.94%
O=[As](O)(c1ccccc1Br)c1ccccc1Br	inactive: 3.61%
CC(C)/C=N\N=C(\N)N[N+](=O)[O-]	inactive: 3.33%
CS(=O)(=O)c1ccc(Cl)c(NC(=O)COC(=O)C(O)(c2ccccc2)c2ccccc2)c1	inactive: 9.61%
COc1cc(C(=O)NCC2(N3CCOCC3)CCCCC2)cc(Cl)c1OC(C)C	inactive: 24.3%
O=[As](O)(O)c1cccnc1	inactive: 7.88%
O=C(OC1CN2CCC1CC2)c1ccc(Cl)cc1 (configuration not stated)	inactive: 12.7%
O=[As](O)(c1cccc(O)c1)c1cccc(O)c1	inactive: 15.3%
Cc1cccc(OCC(=O)OC2CN3CCC2CC3)c1 (configuration not stated)	inactive: -3.56%

SMILES	inhibition
CCCOP(=S)(Nc1nc(N)cc(=O)[nH]1)OCCC	inactive: 7.72%
Cc1ccc(NCCc2c([N+](=O)[O-])cc([N+](=O)[O-])cc2[N+](=O)[O-])cc1	inactive: 10.4%
CCOP(=O)(Nc1cccc2ccccc12)OCC	inactive: 1.1%
COc1cc(C2NCCC3(OCCO3)C2(C)C)cc(OC)c1OC (configuration not stated)	inactive: 3.42%
O=P(Nc1nccs1)(c1ccccc1)c1nc2ccccc2s1 (configuration not stated)	inactive: 8.52%
O=P(Nc1nccs1)(Oc1ccccc1)Oc1ccccc1	inactive: 10.7%
CCOP1(=S)c2c(C)nn(CCC#N)c2N=C(c2ccccc2F)N1C (configuration not stated)	inactive: 7.26%
O=C(O)COc1ccc([As](=O)(O)O)cc1[N+](=O)[O-]	inactive: 11.1%
Nc1ccccc1[As](=O)(O)c1ccccc1	inactive: 1.96%
NC(=O)Nc1ccc([As](=O)(O)O)cc1	inactive: 10.8%
CN(C(=O)Cc1ccc(Cl)c(Cl)c1)[C@H]1CC[C@@]2(CCCO2)C[C@@H]1N1CCCC1	inactive: 29.2%
CN(C)C(=O)c1cc([N+](=O)[O-])cc2c1-c1c(cc([N+](=O)[O-])cc1[N+](=O)[O-])C2=O	inactive: 38.3%
O=[N+]([O-])c1ccc2c(c1)nnn2O	inactive: -0.26%
CCOP1(=S)c2c(C)nn(CCC#N)c2N=C(c2ccc(F)cc2)N1C (configuration not stated)	inactive: -1.26%
CN(C(=O)Cc1ccccc1)[C@@H]1CC[C@]2(CCCO2)C[C@H]1N1CCCC1	inactive: 1.86%
N#CCCN(C(=O)COC(=O)C(O)(c1ccccc1)c1ccccc1)c1ccc(F)cc1	inactive: 12.8%
O=[As](O)(c1ccc(O)cc1)c1ccccc1O	inactive: -1.12%
C[As](=O)(O)c1cccc(C(=O)O)c1	inactive: 0.98%
Cc1ccc2nc3c(c(C)c2c1)CC(C(Cl)Cl)S3 (configuration not stated)	inactive: 14.9%
Cc1ccc(OP(=O)(Nc2ccc([N+](=O)[O-])cn2)Oc2ccc(C)cc2)cc1	inactive: 13.8%
CC(C)c1ccc(OP(=O)(Nc2ccccn2)Oc2ccccc2F)cc1 (configuration not stated)	inactive: 4.77%
ClCCSc1nnc(-c2cccnc2)o1	inactive: 3.93%
O=[N+]([O-])c1cc([N+](=O)[O-])c(-c2ccn[nH]2)s1	inactive: 4.45%
CCN(CC)C(=S)SC(NC=O)C(Cl)(Cl)Cl (configuration not stated)	inactive: 6.47%
CC(C)NC(=O)NP(=O)(Oc1ccccc1)Oc1ccccc1	inactive: 6.19%
Cc1cc(=O)[nH]c(N[N+](=O)[O-])n1	inactive: 2.24%

SMILES	inhibition
O=C(OC1CN2CCC1CC2)C12CC3CC(CC(C3)C1)C2 (configuration not stated)	inactive: -1.47%
Cc1c2c(nc3ccccc13)SC(C(Cl)Cl)C2 (configuration not stated)	inactive: 11.4%
COc1cc(I)ccc1[As](=O)(O)O	inactive: 13.9%
COc1ccc2nc(NP(=O)(c3ccccc3)c3ccccc3)sc2c1	inactive: 12.3%
COc1ccc(N/C(=N/P(=O)(N2CCOCC2)N2CCOCC2)N2CCOCC2)cc1	inactive: 13%
COP1(=S)c2c(C)nn(CCC#N)c2N=C(c2ccc(F)cc2)N1C (configuration not stated)	inactive: -0.18%
O=C(Nc1ccncc1[N+](=O)[O-])c1ccc([N+](=O)[O-])cc1[N+](=O)[O-]	inactive: 3.95%
O=C(COc1ccccc1)OC1CN2CCC1CC2 (configuration not stated)	inactive: -4.33%
CCOC(=O)c1ccc(NC(=O)C(C)(CCl)SC)cc1 (configuration not stated)	inactive: 24.4%
O=C(OC1CN2CCC1CC2)c1cccc([N+](=O)[O-])c1 (configuration not stated)	inactive: 2.68%
CCC(C)N(CC(C)C)C(=S)SC(NC(C)=O)C(Cl)(Cl)Cl (configuration not stated)	inactive: 23.5%
CCOC(=O)Nc1ccc([As](=O)(O)O)c(O)c1	inactive: 7.13%
Cc1cc(SC(NC(=O)c2ccccc2)C(Cl)(Cl)Cl)nc(C(C)C)n1 (configuration not stated)	inactive: 18.7%
CCOC(=O)Nc1cccc([As](=O)(O)O)c1	inactive: 0.195%
O=[N+]([O-])c1ccc(Nc2ccc(Oc3ccc([N+](=O)[O-])cc3[N+](=O)[O-])cc2)c([N+](=O)[O-])c1	inactive: 7.37%
Cc1cc(SC(NC=O)C(Cl)(Cl)Cl)ncn1 (configuration not stated)	inactive: 7.21%
O=P(Nc1ccccn1)(c1cccc2ccccc12)c1cccc2ccccc12	inactive: 11.2%
O=C(Nc1cc([As](=O)(O)O)ccc1O)c1ccccc1	inactive: 1.76%
O=[N+]([O-])c1ncn(CCn2ncnc2[N+](=O)[O-])n1	inactive: 3.17%
O=[N+]([O-])c1cccc(NC2=NCC(CBr)S2)c1 (configuration not stated)	inactive: 24.1%
O=C(O)CNc1ccc([As](=O)(O)O)cc1	inactive: 2.75%
COc1ccc(C2=NCC(CBr)S2)cc1 (configuration not stated)	inactive: 5%
CC(=O)N1C2C3N(C(C)=O)C1C1N(C(C)=O)C(C(N1C(C)=O)N3C(C)=O)N2C(C)=O	inactive: -5.94%
O=[N+]([O-])c1cccc2n[nH]nc12	inactive: 8.11%
O=[N+]([O-])c1cc([N+](=O)[O-])c(CCNc2ccccc2)c([N+](=O)[O-])c1	inactive: 16.3%
CCc1nc2c(n1)c1c(non1O)c1c2no[n+]1[O-]	inactive: 24.8%

SMILES	inhibition
Cc1ccc(NP(=O)(Oc2ccccc2)Oc2ccccc2)nc1	inactive: 0.12%
Nc1ccc([As](=O)(O)c2ccc(N)cc2)cc1	inactive: -15.7%
CCN(/C(=N/P(=O)(N1CCOCC1)N1CCOCC1)N1CCOCC1)c1ccc(OC)cc1	inactive: 2.26%
CN(C)C(=O)OCCc1n(C)cc[n+]1C	inactive: 6.85%
CC(C)=N/N=C(\N)N[N+](=O)[O-]	inactive: -1.08%
CC1CCN(C(=O)Oc2c(Cl)cc(Cl)c3cccnc23)CC1	inactive: -1.69%
NC(=O)c1cc([N+](=O)[O-])cc([N+](=O)[O-])c1N	inactive: 20.9%
Cc1ccc(N/C(=N/P(=O)(N2CCOCC2)N2CCOCC2)N2CCOCC2)cc1	inactive: 9.98%
Cc1ccc(OP(=O)(Nc2nccs2)Oc2ccc(C)cc2)cc1	inactive: 13.7%
Clc1ccc(Cl)c(NC2=NCC(CBr)S2)c1 (configuration not stated)	inactive: 28.8%
CN1CCCC(OC(=O)C(c2ccccc2)c2ccccc2)C1 (configuration not stated)	inactive: -0.05%
CC(C)CC(=O)NC(Sc1ccc(Cl)cc1)C(Cl)(Cl)Cl (configuration not stated)	inactive: 3.15%
Nc1cc(N)c2nonc2c1[N+](=O)[O-]	inactive: 23.6%
O=C(NC(Sc1ccncn1)C(Cl)(Cl)Cl)c1ccccc1 (configuration not stated)	inactive: 7.4%
Oc1ccccc1CNc1ccccn1	inactive: 1.96%
O=C(O)c1ccccc1[As](=O)(O)O	inactive: 4.31%
CC(=O)Nc1ccc([As](=O)(O)O)cc1	inactive: 14.6%
O=P(Nc1nc2ccc(Cl)cc2s1)(c1ccccc1)c1ccccc1	inactive: 6.88%
Cc1ccc(NP(=O)(Oc2ccccc2F)Oc2ccccc2F)nc1	inactive: 11%
CCOP(=O)(Nc1ccccc1)OCC	inactive: 10.4% and inactive: 8.85%
Cc1cc(SC(NC(=O)c2ccc(F)cc2)C(Cl)(Cl)Cl)ncn1 (configuration not stated)	inactive: 19.2%
O=[N+]([O-])c1cc([N+](=O)[O-])c(CCN2CCOCC2)c([N+](=O)[O-])c1	inactive: 36.9%
CCN(N=Nc1nonc1N)c1nonc1N	inactive: 25.2%
Nc1cccc2ccc([As](=O)(O)O)cc12	inactive: 10%

From PubChem BioAssay AID1903 (Southern Research Specialized Biocontainment Screening …, 2009)
